According to article PMC3877894, “Cytotoxic, Cytostatic and HIV-1 PR Inhibitory Activities of the Soft Coral Litophyton arboreum” (Marine Drugs, 2013):
Where “and” joins values, the source holds several entries; their conditions need not be identical. Identical values can stand only once.

How the values were obtained:
HeLa cells = experiment: XTT cytotoxicity assay in HeLa cells; details: IC50 in Vero cell line / IC50 in HeLa
Procedure: (§1) HeLa, U937, and Vero cell lines were maintained in culture flasks containing Eagle’s Minimum Essential Medium supplemented with 10% heat-inactivated FBS and 1% antibiotics (100 U/mL penicillin, 100 μg/mL streptomycin, and 250 μg/mL fungizone). The cells were grown at 37 °C in a humidified incubator set at 5% CO2. Cells were subcultured after they formed a monolayer on the flask. The cells were detached by treating them with trypsin-EDTA (0.25% trypsin containing 0.01% EDTA) for 10 minutes and then by adding complete medium to inhibit the reaction. Cytotoxicity was measured by the XTT method using the Cell Proliferation Kit II. The method described by Zheng et al. was used to perform the assay. Cells were seeded (100 μL) in a 96-well microtiter plate (concentration 1 × 10^5 cells/mL). The plate was then incubated for 24 h at 37 °C and 5% CO2 to allow the cells to attach to the bottom of the wells. The compounds were each prepared to a stock solution of 20 mg/mL and added to the microtiter plate. Serial dilutions were made to range from a concentration of 100 μg/mL–0.7 μg/mL for each compound. The microtiter plate was incubated for a further 72 h. The control wells included vehicle-treated cells exposed to 2% DMSO and the positive control Actinomycin D, with concentrations ranging between 0.5 μg/mL and 0.002 μg/mL. After the 72 h incubation period, the XTT reagent (50 μL) was added to a final concentration of 0.3 mg/mL and the plate was then further incubated for another 2 h. After the incubation the absorbance of the color complex was read at 490 nm with a reference wavelength set at 690 nm. […] The IC50 values were reported at ±95% confidence intervals (±95% CI). The results were analyzed using the GraphPad Prism 4 program.

U937 cells = experiment: XTT cytotoxicity assay in U937 cells; details: IC50 in Vero cell line / IC50 in U937
Procedure: as §1

Compound | SI Values HeLa (HeLa cells) | SI Values U937 (U937 cells)
C=C(CC[C@@H](C)[C@H]1CCC2C3C(CC[C@@]21C)[C@@]1(CO)CC[C@H](O)CC1=C[C@@H]3O)C(C)C (stereo partly drawn) [Compound 9, 24-methylcholesta-5,24(28)-diene-3β,7β,19-triol] | 1.4 | 
C=C1CCC(C(C)C)=CC2C1CCC2(C)O (stereo not shown) [Compound 2, alismol] | 1.6 | 
CC1=CCCC(C)=CCC(O)(C(C)C)CCC(C)=CCC1 (stereo not shown) [Compound 1, sarcophytol M] | 0.8 | 0.75
CO[C@]1(C)CCC(C(C)C)=C[C@H]2[C@H]1CC[C@]2(C)O [Compound 4, 10-O-methyl alismoxide] | 1.3 | 1.00
C=C(CCC(C)C1CCC2C3C(OC(C)=O)C=C4CC(O)CCC4(CO)C3CCC12C)C(C)C (stereo not drawn) [Compound 7, 7β-acetoxy-24-methylcholesta-5-24(28)-diene-3,19-diol] | 8.1 and 7.2 | 2.9
C=C(CC[C@@H](C)[C@H]1CCC2C3CC=C4C[C@@H](O)CC[C@]4(C)C3CC[C@@]21C)C(C)C (stereo partly drawn) [Compound 3, 24-methylcholesta-5,24(28)-diene-3β-ol] | 2.1 | 
CCCCCCCCCCCCCCCCOC[C@@H](O)CO [Compound 6, (S)-chimyl alcohol] | 2.6 | 
